Source: EP2143422A1, “Ophthalmic compositions containing gemifloxacin for the treatment of ocular infections” (S.I.F.I - SOCIETÀ INDUSTRIA FARMACEUTICA ITALIANA - S.P.A., priority 2008, dated 2010)

Test: In vivo pharmacokinetic test: ocular tissue distribution after single ophthalmic administration
Set-up: species or system pigmented rabbits
Protocol: The penetration capacity of gemifloxacin was determined in the cornea, conjunctiva, aqueous humour and iris-ciliary body after single ophthalmic administration (30 µl) of the solution at 0.3% in both eyes of pigmented rabbits. The tissues were collected at the following times: 15 minutes, 30 minutes, 1, 2, 4, 8, 12, 24 and 48 hours. Quantitative analysis of the samples was carried out by a LC/MS/MS method after suitable extraction of the active principle from the tissue and expressed as µg/g or µg/ml of tissue.

[1] = inhibition quotient = Cmax in tissue/MIC90 for St. aureus, single administration of 0.3% solution

**Q.** For CO/N=C1\CN(c2nc3c(cc2F)c(=O)c(C(=O)O)cn3C2CC2)CC1CN (racemic) [Gemifloxacin, (R,S)-7-(3-aminomethyl-4-methoxyiminopyrrolidin-1yl)-1-cyclopropyl-6-fluoro-4-oxo-1,4-dihydro-1,8-naphthyridin-3-carboxylic acid], which “IQs in the various tissues” value (inhibition quotient (tissue concentration/MIC90), single administration) is on record?
**A.** > 1

**Q.** What about the IQconjunctiva [1] of the same molecule?
**A.** 15.3

**Q.** What about the IQcornea [1] of the same molecule?
**A.** 41.1

**Q.** And the IQiris-ciliary body [1]?
**A.** 7.2
